Measured values from several laboratories, pooled; numbers as filed in NIAID ChemDB.

Shared fields: growth or infection tests

Neighbouring rows are from separate reports. ECn is the concentration giving n% inhibition of infection, replication or growth. MIC50, MIC90 and the like: level of inhibition, or share of isolates inhibited. Percent inhibition refers to the dose given; in toxicity tests it is the harm to the cells. An empty or dashed field is not shown.

| structure | tested at | strain or isolate | method | measure | organism | cells | value |
|---|---|---|---|---|---|---|---|
| O=C1c2cn[nH]c2C(=O)c2c(O)ccc(O)c21 | 10 µM | - | - | inhibition | Cryptosporidium parvum | - | 20% |
| Cn1nc(Cc2ccc(Cl)cc2)c2ccccc2c1=O | - | Clinical isolate (IM 031631) | broth dilution | MIC50 | Cryptococcus neoformans | - | 15.6 µg/mL |
| NCCCC[C@H](NC(=O)[C@@H](N)CCCCN)C(=O)N[C@@H](CCC(N)=O)C(=O)N[C@@H](CCCN=C(N)N)C(=O)O | 32 µM | ATCC 32264 | - | inhibition | Cryptococcus neoformans | - | 12.5% |
| CCC(C)CC(C)CCCCCCCCC(=O)N[C@H]1C[C@@H](O)[C@H](NCCN)NC(=O)[C@@H]2[C@@H](O)CCN2C(=O)[C@H]([C@H](O)CCN)NC(=O)[C@H]([C@H](O)[C@@H](O)c2ccc(O)cc2)NC(=O)[C@@H]2C[C@@H](O)CN2C(=O)[C@H]([C@@H](C)O)NC1=O | - | CBS 10514 | broth dilution | MIC | Cryptococcus gattii | - | 16 µg/mL |
| NC[C@@H]1O[C@H](O[C@H]2[C@@H](O)[C@H](O[C@@H]3[C@@H](O)[C@H](N)C[C@H](N)[C@H]3O[C@H]3O[C@H](CO)[C@@H](O)[C@H](O)[C@H]3N)O[C@@H]2CO)[C@H](N)[C@@H](O)[C@@H]1O | - | - | cell count | EC50 | Cryptosporidium parvum | MDBK | <250 µg/mL |
| O=C1c2ccccc2C(=O)c2[nH]ncc21 | 100 µM | - | - | inhibition | Cryptosporidium parvum | - | <10% |
| C[C@@H](c1nc(-c2ccc(C#N)cc2)cs1)[C@](O)(Cn1cncn1)c1cc(F)ccc1F | - | - | broth dilution | MIC50 | Cryptococcus gattii | - | 0.063 µg/mL |
| Oc1ccccc1N=Cc1ccc(F)cc1 | - | ATCC 24065 | - | MIC99 | Cryptococcus gattii | - | 5.7 µg/mL |
| CCC(C)n1ncn(-c2ccc(N3CCN(c4ccc(OC[C@H]5CO[C@](Cn6cncn6)(c6ccc(Cl)cc6Cl)O5)cc4)CC3)cc2)c1=O | - | Clinical isolate (IM 983040) | broth dilution | MIC | Cryptococcus neoformans | - | <0.015 µg/mL |
| CC[C@@H](C(=O)[C@@H](C)[C@@H](O)[C@H](C)CCc1ccc(C)c(O)c1C(=O)O)[C@H]1O[C@](CC)([C@H]2CC[C@](O)(CC)[C@H](C)O2)C[C@@H]1C | - | IOWA | luminescence | EC50 | Cryptosporidium parvum | MDCK | 0.4 µg/mL |
| CCOC(=O)c1c(C)nc(NCCCNc2ccnc3cc(Cl)ccc23)nc1-c1ccccc1 | - | LMM 820 | - | MIC99 | Cryptococcus neoformans | - | 8 µg/mL |
| CCn1ncc2c1C(=O)c1c(O)ccc(O)c1C2=O | 10 µM | - | - | inhibition | Cryptosporidium parvum | - | <10% |
| Oc1ccccc1N=Cc1ccc2c(c1)OCO2 | - | 1913 ER | - | MIC99 | Cryptococcus gattii | - | 11.3 µg/mL |
| O=C1c2cccc(O)c2C(=O)c2cn[nH]c21 | 25 µM | - | - | inhibition | Cryptosporidium parvum | - | <10% |
| Oc1ccccc1N=Cc1ccccc1 | - | 196L/03 | - | MIC99 | Cryptococcus gattii | - | 8 µg/mL |
| CN[C@H]1CC[C@@H](c2ccc(Cl)c(Cl)c2)c2ccccc21 | - | XL1495 | broth dilution | MIC90 | Cryptococcus neoformans | - | 4 µg/mL |

2 of the rows above, restated:

| structure | tested at | strain or isolate | method | measure | organism | cells | value |
|---|---|---|---|---|---|---|---|
| NC[C@@H]1O[C@H](O[C@H]2[C@@H](O)[C@H](O[C@@H]3[C@@H](O)[C@H](N)C[C@H](N)[C@H]3O[C@H]3O[C@H](CO)[C@@H](O)[C@H](O)[C@H]3N)O[C@@H]2CO)[C@H](N)[C@@H](O)[C@@H]1O | - | - | cell count | EC50 | Cryptosporidium parvum | MDBK | <250 µg/mL |
| Oc1ccccc1N=Cc1ccc2c(c1)OCO2 | - | 1913 ER | - | MIC99 | Cryptococcus gattii | - | 11.3 µg/mL |